A mixed list of measured activities; the numbers were collected in NIAID ChemDB.

All rows: tests in culture; agent: Rhinovirus

MIC50, MIC90 and the like: level of inhibition, or share of isolates inhibited.

compound | read-out | tested at | cells | strain or isolate | method | value
Cc1cc(CCCCCOc2cc(Cl)c(-c3nnc(C)o3)c(Cl)c2)on1 | MIC80 | - | - | Serotype 2 | - | 0.016 µg/mL
Cc1cc(CCCCCOc2c(Cl)cc(C3=NCCO3)cc2Cl)on1 | EC50 | - | HeLa | TYPE 31 | plaque count | 0.28 µg/mL
O=S(=O)([O-])c1ccc2c(S(=O)(=O)[O-])cc(S(=O)(=O)[O-])cc2c1 | inhibition | 5 µg/mL | Human amnion AV3 cells | - | cytopathic effect | 5%
CN(c1cccc(F)c1)c1nc(C(F)(F)F)nc2c1ncn2Cc1cccc(F)c1 | EC50 | - | M-HELA | Serotype 5 | plaque count | >10 µM
CN(C)c1nc(C(F)(F)F)nc2c1ncn2Cc1ccc(Cl)cc1Cl | inhibition | 8 µM | M-HELA | Serotype 3 | plaque count | 17%
O=S(=O)([O-])c1cc(NS(=O)(=O)c2ccccc2)c2c(S(=O)(=O)[O-])cc(S(=O)(=O)[O-])cc2c1 | inhibition | 10 µg/mL | Human embryonic lung cells | - | cytopathic effect | 50%
Cc1cc(CCCCCOc2cc(Cl)c(-c3nnco3)c(Cl)c2)on1 | MIC80 | - | - | Serotype 25 | - | 2.42 µg/mL
Cc1cc(CCCOc2c(C)cc(-c3noc(C(F)(F)F)n3)cc2C)on1 | EC50 | - | OHIO HELA-I | Isolate 16 | cytopathic effect / visual reading | <0.01 µg/mL
CN(C)c1nc(C(F)(F)F)nc2c1ncn2Cc1ccc(F)cc1 | inhibition | 8 µM | M-HELA | Serotype 3 | plaque count | 35%
O=S(=O)([O-])c1ccc2c(O)cc(S(=O)(=O)[O-])cc2c1 | inhibition | 50 µg/mL | Human amnion AV3 cells | - | cytopathic effect | 20%
CN(C)c1nc(C(F)(F)F)nc2c1ncn2Cc1ccccc1Cl | inhibition | 8 µM | M-HELA | Serotype 30 | plaque count | 31%
CCO/N=C/c1ccc(OCCC2CCN(c3ccc(Cl)nn3)CC2)cc1 | EC50 | - | KB | 204-CV14 (ICAM-1 receptor group 10) | neutral red | 0.773 µM
CN(C)c1ccc(Cn2cnc3c(N(C)C)nc(C(F)(F)F)nc32)cc1 | EC50 | - | M-HELA | Serotype 30 | plaque count | >8 µM
Nc1c(S(=O)(=O)O)cc2cc(S(=O)(=O)O)cc(O)c2c1O | inhibition | 10 µg/mL | Human amnion AV3 cells | - | cytopathic effect | 40%
Fc1cccc(Cn2cnc3c(Nc4cccc(F)c4)nc(C(F)(F)F)nc32)c1 | EC50 | - | M-HELA | Serotype 34 | plaque count | 3 µM
CN(C)c1nc(C(F)(F)F)nc2c1ncn2Cc1ccc(S(C)(=O)=O)cc1 | inhibition | 8 µM | M-HELA | Serotype 15 | plaque count | 47%

The first 2 rows once more:

Cc1cc(CCCCCOc2cc(Cl)c(-c3nnc(C)o3)c(Cl)c2)on1 ; read-out: MIC80 ; strain or isolate: Serotype 2 ; value: 0.016 µg/mL
Cc1cc(CCCCCOc2c(Cl)cc(C3=NCCO3)cc2Cl)on1 ; read-out: EC50 ; cells: HeLa ; strain or isolate: TYPE 31 ; method: plaque count ; value: 0.28 µg/mL

Rows are shuffled and stem from different studies. Percent inhibition refers to the dose given; in toxicity tests it is the harm to the cells. ECn: concentration that inhibits the pathogen or its effect by n%. An empty or dashed field is not shown.